Anti-infective test results gathered from many reports (values: NIAID ChemDB through PubChem).

All rows: whole-cell or culture tests; organism: Hepatitis C virus; endpoint: EC50

ECn is the concentration giving n% inhibition of infection, replication or growth. Conditions beyond the fields shown may differ between rows.

CC[C@H](C)C(=O)O[C@H]1CC=CC2C=C[C@H](C)[C@H](CC[C@@H]3C[C@@H](O)CC(=O)O3)[C@H]21 ; method: luciferase / replicon ; cell line: Huh 9-13 ; value: 2.2 µM
NC(=O)c1nn(Cc2cccc(NC(=O)c3ccc(F)cc3)c2)c2ccccc12 ; method: luciferase / replicon ; changes: Luciferase reporter gene ; strain: J399EM ; cell line: Huh7.5.1 ; value: 0.018 µM
O=C(O)c1c(-c2ccc(O)cc2)nc(NCc2nc3ccccc3[nH]2)[nH]c1=O ; method: replicon / PCR ; cell line: Huh7 ; value: 0.512 µM
C[C@@]1(O)[C@H](O)[C@@H](CO)O[C@H]1n1cnc2c(N)ncnc21 ; method: luciferase ; strain: GT2b ; cell line: Huh7-Lunet ; value: 0.35 µM
COC(=O)N[C@H](C(=O)N1CCC[C@H]1c1ncc(-c2ccc(-c3ccc(-c4cnc([C@@H]5CCCN5C(=O)[C@@H](NC(=O)OC)C(C)C)[nH]4)cc3)cc2)[nH]1)C(C)C ; method: GFP / fluorescence ; strain: J399EM ; cell line: Huh7.5.1 ; value: 0.000054 µM
CC1(C)CCC(C)(C)C2C=C(NC(=O)c3ccc(C(=O)O)cc3)C=CC21 ; method: MTT ; cell line: Huh7.5.1 ; value: 0.00000647 µM
CNC(=O)c1c(-c2ccc(F)cc2)oc2cc(N(CCO)S(C)(=O)=O)c(C3CC3)cc12 ; method: PCR ; cell line: HuH6 ; value: >33 µM
C=C[C@H]1CN2CC[C@H]1C[C@@H]2[C@@H](O)c1ccnc2ccc(OC)cc12 ; method: luminescence ; cell line: n4mBid ; value: 4.2 µM
CC(=O)Nc1ccc(-c2ccc(Cl)cc2)c(COc2ccc(-c3nc4cc(C(=O)O)ccc4n3C3CCCCC3)cc2)c1 ; method: luciferase ; strain: 4a ; cell line: Huh7 ; value: 1.826 µM
CC(C)OC(=O)[C@H](C)N[P@](=O)(OC[C@H]1O[C@@](C#N)(c2ccc3c(N)ncnn23)[C@](C)(O)[C@@H]1OC(=O)C(C)C)Oc1ccccc1 ; method: luciferase ; strain: 5a ; cell line: Huh7 replicon ; value: 0.14 µM
CC(=N/O)/C(C)=N/O ; method: PCR ; strain: JFH-1 ; cell line: Huh7-1 ; value: 18.9 µM
COc1ccc([C@H]2Oc3ccc([C@H]4Oc5cc(O)cc(O)c5C(=O)[C@@H]4O)cc3O[C@@H]2CO)cc1O ; strain: 1b ; value: 40 µM
C[C@@]1(O)[C@H](O)[C@@H](CO)O[C@H]1n1cnc2c(N)ncnc21 ; method: luciferase ; strain: 6a HK ; cell line: Huh7 replicon ; value: 0.031 µM
O=C(O)c1cccc([As]=[As]c2cccc(C(=O)O)c2)c1 ; method: PCR ; strain: sg1b ; cell line: Huh7-1 ; value: 0.7 µM
CC1(C)[C@@H](O[C@H]2O[C@H](C(=O)O)[C@@H](O)[C@H](O)[C@H]2O[C@@H]2O[C@H](C(=O)O)[C@@H](O)[C@H](O)[C@H]2O)CC[C@]2(C)[C@H]3C(=O)C=C4[C@@H]5C[C@@](C)(C(=O)O)CC[C@]5(C)CC[C@@]4(C)[C@]3(C)CC[C@@H]12 ; method: microscopy / fluorescence ; strain: 2a ; cell line: Huh7.5 ; value: 320 µg/mL
C[C@@]1(O)[C@H](O)[C@@H](CO)O[C@H]1n1cnc2c(N)ncnc21 ; setting: 48 h ; cell line: Huh7 ; value: 0.17 µM
CC(C)(C)NC(=O)N[C@H](C(=O)N1C[C@H]2[C@@H]([C@H]1C(=O)NC(CC1CCC1)C(=O)C(N)=O)C2(C)C)C(C)(C)C ; method: PCR ; changes: T1280A S1358P D1431P D1431N F1809L I1839V ; strain: 1a H77 ; cell line: Huh7 ; value: 0.55 µM
CC1(C)CCC(C)(C)c2cc(C3(c4ccc(C(=O)O)cc4)OCCO3)ccc21 ; method: MTT ; cell line: Huh7.5.1 ; value: 0.00145 µM
Fc1ccc(C(c2ccc(F)cc2)N2CCN(C/C=C/c3ccccc3)CC2)cc1 ; method: luminescence ; cell line: n4mBid ; value: 2.1 µM
NC(=O)c1nn(Cc2cccc(NC(=O)C3CC3)c2)c2ccccc12 ; method: fluorescence ; strain: J399EM ; cell line: Huh7.5.1 ; value: 1.17 µM
Fc1ccccc1-c1nc2ccn(Cc3ccc(-c4ccc(C(F)(F)F)cc4C(F)(F)F)nn3)cc-2n1 ; method: luciferase / replicon ; strain: GT1b ; cell line: Huh7 ; value: 0.0032 µM
CCC[C@H](NC(=O)[C@@H]1[C@H]2CCC[C@H]2CN1C(=O)[C@@H](NC(=O)[C@@H](NC(=O)c1cnccn1)C1CCCCC1)C(C)(C)C)C(=O)C(=O)NC1CC1 ; method: luciferase / replicon ; strain: JFH-1 ; cell line: Huh7.5.1 ; value: 0.613 µM
CN(C)c1ccccc1CN1CCCN(Cc2ccccc2N(C)C)C1c1ccncc1 ; method: PCR ; strain: JFH-1 ; cell line: Huh7-1 ; value: 1.5 µM
O=C(O)c1c(-c2ccccc2Cl)nc(SCc2nc3ccccc3[nH]2)[nH]c1=O ; method: replicon / PCR ; cell line: Huh7 ; value: 0.298 µM
CCN(CC)CCN1C(=O)c2cccc3cc(N)cc(c23)C1=O ; method: PCR ; strain: sg2a (JFH) ; cell line: Huh7-1 ; value: 3.9 µM
CCC[C@H](NC(=O)[C@@H]1[C@H]2CCC[C@H]2CN1C(=O)[C@@H](NC(=O)[C@@H](NC(=O)c1cnccn1)C1CCCCC1)C(C)(C)C)C(=O)C(=O)NC1CC1 ; method: luminescence ; cell line: n4mBid ; value: 0.2 µM
NC(=O)c1nn(Cc2cccc(NC(=O)c3ccc([N+](=O)[O-])cc3)c2)c2ccccc12 ; method: luciferase / replicon ; changes: Luciferase reporter gene ; strain: J399EM ; cell line: Huh7.5.1 ; value: 0.024 µM
CN1CCN(CCCN2c3ccccc3Sc3ccc(Cl)cc32)CC1 ; method: luminescence ; cell line: n4mBid ; value: 4.2 µM
CC1(C)C=Cc2c(ccc3c2OC[C@@H](c2ccc(O)cc2O)C3)O1 ; method: microscopy / fluorescence ; strain: 2a ; cell line: Huh7.5 ; value: 6.2 µg/mL
C[C@@]1(O)[C@H](O)[C@@H](CO)O[C@H]1n1ccc(N)nc1=O ; method: luciferase / replicon ; strain: GT3a ; cell line: Huh7.5 ; value: 2.249 µM
COC(=O)c1ccc(C(=O)Nc2cccc(Cn3nc(C(N)=O)c4ccccc43)c2)cc1 ; method: fluorescence ; strain: J399EM ; cell line: Huh7.5.1 ; value: 0.04 µM
CC1=CC[C@H](C(=O)N(c2cc(C#CC(C)(C)C)sc2C(=O)O)C2CCC(O)(CO[C@H]3CCOC3)CC2)CC1 ; method: luciferase ; strain: GT3a ; cell line: Huh7-Lunet ; value: >50 µM
CCC[C@H](NC(=O)[C@@H]1[C@H]2CCC[C@H]2CN1C(=O)[C@@H](NC(=O)[C@@H](NC(=O)c1cnccn1)C1CCCCC1)C(C)(C)C)C(=O)C(=O)NC1CC1 ; method: PCR ; cell line: Huh 9-13 ; value: >24 µM
CC[C@H]1C[C@]1(NC(=O)[C@@H]1C[C@@H]2CN1C(=O)[C@H](C(C)(C)C)NC(=O)OCC(C)(C)CCCCc1cccc3c1CN(C3)C(=O)O2)C(=O)NS(=O)(=O)C1CC1 ; method: antigen ; strain: JFH-1 ; cell line: Huh7.5 ; value: 0.024 µM
CC1(C)[C@@H](O)CC[C@]2(C)[C@H]3C(=O)C=C4[C@@H]5C[C@@](C)(C(=O)O)CC[C@]5(C)CC[C@@]4(C)[C@]3(C)CC[C@@H]12 ; method: microscopy / fluorescence ; strain: 2a ; cell line: Huh7.5 ; value: 40 µg/mL
COc1cc(C2C3CO[C@]4(O)C[C@H]2C=C([C@H]2Oc5cc(O)cc(O)c5C(=O)[C@@H]2O)[C@H]34)ccc1O ; strain: 1b ; value: >100 µM
CCC[C@H](NC(=O)[C@@H]1[C@H]2CCC[C@H]2CN1C(=O)[C@@H](NC(=O)[C@@H](NC(=O)c1cnccn1)C1CCCCC1)C(C)(C)C)C(=O)C(=O)NC1CC1 ; method: luciferase / reporter gene ; strain: genotype 1b ; cell line: Huh7.5 ; value: 0.3016 µM
C[C@]1(C(=O)O)CC[C@]2(C)CC[C@]3(C)C(=CC(=O)[C@@H]4[C@@]5(C)CC[C@H](O[C@H]6O[C@H](C(=O)O)[C@@H](O)[C@H](O)[C@H]6O[C@@H]6O[C@H](C(=O)O)[C@@H](O)[C@H](O)[C@H]6O)[C@](C)(CO)[C@@H]5CC[C@]43C)[C@@H]2C1 ; method: microscopy / fluorescence ; strain: 2a ; cell line: Huh7.5 ; value: >30 µg/mL
N#Cc1c(-c2ccc(Cl)cc2)nc(NCc2nc3ccccc3[nH]2)[nH]c1=O ; method: replicon / PCR ; cell line: Huh7 ; value: 0.235 µM
NC(=O)c1ncn([C@@H]2O[C@H](CO)[C@@H](O)[C@H]2O)n1 ; method: luciferase / replicon ; strain: JFH-1 ; cell line: Huh7.5.1 ; value: >10 µM
O=C1C[C@@H](c2ccc(O)cc2)Oc2cc(O)ccc21 ; method: microscopy / fluorescence ; strain: 2a ; cell line: Huh7.5 ; value: 16.4 µg/mL
CC1=C(/C=C/C(C)=C/C=C/C(C)=C/C(=O)O)C(C)(C)CCC1 ; method: MTT ; cell line: Huh7.5.1 ; value: 0.00445 µM
C[C@H](Br)C(=O)c1ccc2cc(Br)c3ccccc3c2c1 ; method: PCR ; strain: sg1a (H77) ; cell line: Huh7-1 ; value: 9.9 µM
C[C@@]1(O)[C@H](O)[C@@H](CO)O[C@H]1n1cnc2c(N)ncnc21 ; method: luciferase ; strain: 5a ; cell line: Huh7 ; value: 0.1309 µM
CC(C)(C)OC(=O)N[C@@H]1CCCCC/C=C\[C@@H]2C[C@@]2(C(=O)NS(=O)(=O)C2CC2)NC(=O)[C@@H]2C[C@@H](OC(=O)N3Cc4cccc(F)c4C3)CN2C1=O ; method: antigen ; strain: 452 ; cell line: Huh7.5 ; value: 2.671 µM
COc1ccc2c(O[C@@H]3C[C@H]4C(=O)N[C@]5(C(=O)O)C[C@H]5/C=C\CCCCC[C@H](NC(=O)OC5CCCC5)C(=O)N4C3)cc(-c3csc(NC(C)C)n3)nc2c1 ; method: luciferase ; strain: Con1 ; cell line: 1C ; value: 0.00061 µM
CCC[C@H](NC(=O)[C@@H]1[C@H]2CCC[C@H]2CN1C(=O)[C@@H](NC(=O)[C@@H](NC(=O)c1cnccn1)C1CCCCC1)C(C)(C)C)C(=O)C(=O)NC1CC1 ; method: luciferase ; strain: 1b D168A ; value: 0.377 µM
O=C(O)c1c(-c2ccccc2O)nc(SCc2nc3ccccc3[nH]2)[nH]c1=O ; method: replicon / PCR ; cell line: Huh7 ; value: 0.285 µM
CNC(=O)c1c(-c2ccc(F)cc2)oc2cc(N(CCO)S(C)(=O)=O)c(C3CC3)cc12 ; method: luciferase ; strain: 1b ; cell line: Huh7 ; value: 0.0085 µM